{"source": "PubChem BioAssay AID1259414 (Drosophila RNAi Screening Center, 2018)", "assay": "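Host factors increasing or decreasing Wolbachia levels in cultured fly cells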 (primary screen)", "system": "Drosophila JW18 cells infected with Wolbachia", "reagents": "long dsRNA against Drosophila genes, 0.25 µg dsRNA per well of a 384-well plate", "time to read-out": "5 days", "conditions": "cells persistently infected with Wolbachia before knock-down; no added drug", "measurement": "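Automated imaging of bacterial rRNA staining divided by host cell count, reported as plate-normalised robust z-score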", "scale": "Wolbachia per cell robust z: higher = more Wolbachia per host cell than the plate typical", "active means": "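Active if absolute robust z reaches 1.5 in two or more of three replicates, leaving out multi- or no-target dsRNAs, genes unexpressed in JW18 and A1 wells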", "note": "The screen tested about 24,000 reagents; below is a random part of those with a known target gene and a result. Of all reagents, about 1,210 (5%) are marked active. 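Inactive calls also include excluded dsRNAs with several or no targets, genes unexpressed in JW18, and well A1, regardless of score.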 Unmarked entries are inactive."}
{"target":"Jheh3","DRSC id":"DRSC06533","Wolbachia per cell robust z, rep 1":-0.661,"Wolbachia per cell robust z, rep 2":1.15,"Wolbachia per cell robust z, rep 3":1.39}
{"target":"Jheh3","DRSC id":"DRSC29140","Wolbachia per cell robust z, rep 1":0.375,"Wolbachia per cell robust z, rep 2":-0.817,"Wolbachia per cell robust z, rep 3":1.18}
{"target":"Cpsf100","DRSC id":"DRSC14146","Wolbachia per cell robust z, rep 1":1.45,"Wolbachia per cell robust z, rep 2":-0.216,"Wolbachia per cell robust z, rep 3":-1.47}
{"target":"Cpsf100","DRSC id":"DRSC28396","Wolbachia per cell robust z, rep 1":1.13,"Wolbachia per cell robust z, rep 2":1.01,"Wolbachia per cell robust z, rep 3":0.47}
{"target":"CG2129","DRSC id":"DRSC18209","Wolbachia per cell robust z, rep 1":-0.552,"Wolbachia per cell robust z, rep 2":0.748,"Wolbachia per cell robust z, rep 3":-1.13}
{"target":"CG2129","DRSC id":"DRSC24934","Wolbachia per cell robust z, rep 1":-1.34,"Wolbachia per cell robust z, rep 2":-1.94,"Wolbachia per cell robust z, rep 3":-1.08}
{"target":"CG10321","DRSC id":"DRSC04061","Wolbachia per cell robust z, rep 1":-0.124,"Wolbachia per cell robust z, rep 2":-1.8,"Wolbachia per cell robust z, rep 3":0.145}
{"target":"CG10321","DRSC id":"DRSC28284","Wolbachia per cell robust z, rep 1":-0.587,"Wolbachia per cell robust z, rep 2":0.124,"Wolbachia per cell robust z, rep 3":-0.137}

Targets listed so far whose target name starts with J or j:
{"target":"Jheh3","DRSC id":"DRSC06533","Wolbachia per cell robust z, rep 1":-0.661,"Wolbachia per cell robust z, rep 2":1.15,"Wolbachia per cell robust z, rep 3":1.39}
{"target":"Jheh3","DRSC id":"DRSC29140","Wolbachia per cell robust z, rep 1":0.375,"Wolbachia per cell robust z, rep 2":-0.817,"Wolbachia per cell robust z, rep 3":1.18}

Additional results follow:
{"target":"l(3)mbt","DRSC id":"DRSC16983","Wolbachia per cell robust z, rep 1":-0.272,"Wolbachia per cell robust z, rep 2":1.36,"Wolbachia per cell robust z, rep 3":0.759}
{"target":"l(3)mbt","DRSC id":"DRSC26103","Wolbachia per cell robust z, rep 1":-1.97,"Wolbachia per cell robust z, rep 2":-0.205,"Wolbachia per cell robust z, rep 3":0.806}
{"target":"CG17593","DRSC id":"DRSC00504","Wolbachia per cell robust z, rep 1":-0.367,"Wolbachia per cell robust z, rep 2":-4.58,"Wolbachia per cell robust z, rep 3":-0.765}
{"target":"CG17593","DRSC id":"DRSC27490","Wolbachia per cell robust z, rep 1":1.77,"Wolbachia per cell robust z, rep 2":-0.317,"Wolbachia per cell robust z, rep 3":-0.198}
